Measurements taken from patent publication US9441263B2, “Ribosomal targets for antibiotic drug discovery” (Cornell University, priority 2011, dated 2016).

Tested on: E. coli 70S ribosome
Test: X-ray crystallography of 70S ribosome crystals soaked with neomycin
Type: binding, Escherichia coli

neomycin
binding site seen in difference electron density (rotated ribosome): present in the h44 site as well as a site at the base of helix H69 in the large subunit | binding site seen in difference electron density (unrotated ribosome): bound in its canonical h44 decoding site
